Pooled drug test results. Numbers come from NIAID ChemDB, via PubChem.

All rows: tests on isolated targets

ICn is the concentration giving n% inhibition.

compound | agent | mutations | protein | method | endpoint | dose | value
CC(C)[C@H](NC(=O)c1ccc2ccccc2n1)C(=O)N[C@@H](Cc1ccccc1)[C@H](O)CN1CC[C@@H](SCc2cccnc2)C[C@H]1C(=O)NC(C)(C)C | HIV | PR-V32I M46I A71V I84A | Protease | fluorescence | fold resistance | - | 11900
CCOC(=O)C(C(=O)OCC)c1cn(Cc2cc(F)ccc2F)c2ccc(F)cc12 | HIV-1 | Y143R | Integrase | strand transfer / fluorescence | fold resistance | - | 1
Nc1ccn([C@H]2CC[C@@H](COP(=O)(O)OP(=O)(O)OP(=O)(O)O)O2)c(=O)n1 | HIV-1 | - | Reverse transcriptase | nucleotide incorporation / radiometric | Ki | - | 0.27 µM
O=C(/C=C/c1ccc(O)c(O)c1)OC[C@H]1O[C@@H](OCCc2ccc(O)c(O)c2)[C@H](O)[C@@H](O)[C@@H]1O | HIV-1 | - | gp41 | ELISA | IC50 | - | >50 µg/mL
Cc1cn([C@H]2C=C[C@@H](COP(=O)(O)OP(=O)(O)OP(=O)(O)O)O2)c(=O)[nH]c1=O | HIV-1 | RT-K65R | Reverse transcriptase | nucleotide incorporation / radiometric | Ki | - | 0.78 µM
CC(C)[C@H](NC(=O)OCCN1CCCC1)C(=O)N[C@@H](Cc1ccccc1)[C@@H](O)[C@H](Cc1ccccc1)NC(=O)[C@@H](NC(=O)OCc1ccccc1)C(C)C | HIV-1 | - | Protease | fluorescence | inhibition | 0.005 µM | 31%
Nc1ncnc2c1ncn2[C@H]1CC[C@@H](COP(=O)(O)OP(=O)(O)OP(=O)(O)O)O1 | HIV-1 | RT-T215Y | Reverse transcriptase | nucleotide incorporation / radiometric | Ki | - | 0.52 µM
COc1cc2ccc(=O)oc2c(O[C@@H]2O[C@H](CO)[C@@H](O)[C@H](O)[C@H]2O)c1O | HIV-1 | - | gp41 | ELISA | inhibition | 50 µg/mL | 1%
CCOC(=O)C(C(=O)OCC)c1cn(S(=O)(=O)c2ccc(C)cc2)c2ccc(NC(=O)c3cccc([N+](=O)[O-])c3)cc12 | HIV-1 | Y143R | Integrase | strand transfer / fluorescence | fold resistance | - | 1
Cc1cc(SC2=C(O)C[C@@](CCc3ccc(O)cc3)(C(C)C)OC2=O)c(C(C)(C)C)cc1N | HIV | - | Protease | HPLC | inhibition | 10 µM | 3.2%
C[C@@H]1O[C@@H](O[C@@H]2[C@@H](O)[C@H](OCCc3ccc(O)c(O)c3)O[C@H](CO)[C@H]2OC(=O)/C=C/c2ccc(O)c(O)c2)[C@H](O)[C@H](O)[C@H]1O | HIV-1 | - | gp41 | ELISA | inhibition | 50 µg/mL | 8%
CCCCNc1cc(C(=O)O)cc(S(N)(=O)=O)c1Oc1ccccc1 | HIV-1 | - | Integrase | AlphaScreen | inhibition | 10 µM | 32.15%
CC(O)/C=C/c1ccc2c(c1)c(C(=O)/C=C1\OC(C)(C)OC1=O)cn2Cc1ccc(F)cc1 | HIV-1 | G140S | Integrase | strand transfer / fluorescence | fold resistance | - | 0.8
Cc1cn([C@@H]2O[C@H](CO[Si](C)(C)C(C)(C)C)C3(OS(=O)(=O)C=C3N)[C@H]2O[Si](C)(C)C(C)(C)C)c(=O)n(C)c1=O | HIV | RT-N137E | Reverse transcriptase | nucleotide incorporation / radiometric | IC50 | - | 1.7 µM
CN(C)CC/C=C1/c2ccccc2COc2ccc(CC(=O)O)cc21 | HIV-1 | - | Integrase | AlphaScreen | inhibition | 10 µM | 10.76%
Cc1cccc(C)c1OCC(=O)N[C@@H](Cc1ccccc1)[C@H](O)CN1CC[C@@H](Sc2ccncc2)C[C@H]1C(=O)NC(C)(C)C | HIV-2 | - | Protease | fluorescence | Ki | - | 0.000024 µM
CC1=C(CC(=O)O)c2cc(F)ccc2/C1=C\c1ccc(S(C)=O)cc1 | HIV-1 | - | Integrase | AlphaScreen | inhibition | 10 µM | 33.75%
CNC(=O)[C@@H](NC(=O)[C@H](OCc1ccccc1)[C@H](O)[C@@H](O)[C@@H](OCc1ccccc1)C(=O)N[C@H]1c2ccccc2C[C@H]1O)C(C)C | HIV | PR-G48V V82A I84V L90M | Protease | - | fold resistance | - | 246
CC(C)[C@H](NC(=O)c1ccccn1)C(=O)N[C@@H](Cc1ccccc1)[C@@H](O)[C@H](O)[C@H](Cc1ccccc1)NC(=O)[C@@H](NC(=O)c1ccccn1)C(C)C | HIV-1 | - | Protease | fluorescence | IC50 | - | <0.1 µM
C/C(=N\O)c1cccc(CN2[C@H](COc3ccccc3)[C@H](O)[C@@H](O)[C@@H](COc3ccccc3)N(Cc3cccc(/C(C)=N/O)c3)S2(=O)=O)c1 | HIV-1 | PR-G48V L90M | Protease | - | fold resistance | - | 1.86
Nc1ncnc2c1ncn2CCOCP(=O)(O)OP(=O)(O)OP(=O)(O)O | HIV-1 | RT-T215Y | Reverse transcriptase | nucleotide incorporation / radiometric | Ki | - | 0.26 µM
CC1(C)OC(=O)/C(=C/C(=O)c2c[nH]c3ccc(Br)cc23)O1 | HIV-1 | G140S | Integrase | strand transfer / fluorescence | fold resistance | - | 0.8
CO[P@](=O)(c1cc(C)cc(/C=C/C#N)c1)c1c(C(N)=O)[nH]c2ccc(Cl)cc12 | HIV | V106M | Reverse transcriptase | - | IC50 | - | 0.2 µM
Cc1ccc2c(c1)n(CCNC(=S)Nc1ccc(Br)cn1)c(=O)c1cccn12 | HIV-1 | RT-L100I | Reverse transcriptase | nucleotide incorporation | Ki | - | 0.35 µM
Cc1ccc(S(=O)(=O)n2cc(C(C(=O)O)C(=O)O)c3cc(NC(=O)c4cccc(C)c4O)ccc32)cc1 | HIV-1 | Y143R | Integrase | strand transfer / fluorescence | fold resistance | - | 1
CC(C)[C@H](NC(=O)OCc1ccccc1)C(=O)N[C@@H](Cc1ccccc1)[C@H](O)[C@H](O)[C@H](Cc1ccccc1)NC(=O)OC(C)(C)C | HIV-1 | - | Protease | fluorescence | inhibition | 0.005 µM | 86%
O=c1cnc2ccccc2n1CCNC(=S)Nc1ccc(Br)cn1 | HIV-1 | RT-Y188L | Reverse transcriptase | nucleotide incorporation | fold resistance | - | 4
O=C(O)C(=O)/C=C(\O)c1cn(Cc2ccc(F)cc2)c2ccc(Br)cc12 | HIV-1 | Y143R | Integrase | strand transfer / fluorescence | fold resistance | - | 1.8
CC[C@H]1C(=O)Nc2ccc(F)cc2N1C(=O)OC(C)C | HIV | RT-N137Q | Reverse transcriptase | nucleotide incorporation / radiometric | fold resistance | - | 0.64
CC1(C)OC(=O)/C(=C/C(=O)c2cn(Cc3ccc(F)cc3)c3ccc(Br)cc23)O1 | HIV-1 | Y143R | Integrase | strand transfer / fluorescence | fold resistance | - | 1
O=C1c2cccnc2C(=O)N1CCNC(=S)Nc1ccc(Br)cn1 | HIV-1 | RT-L100I | Reverse transcriptase | nucleotide incorporation | Ki | - | 0.2 µM
COc1cc2ccc(=O)oc2c(O)c1O | HIV-1 | - | gp41 | ELISA | IC50 | - | >50 µg/mL
NC[C@@H]1O[C@H](O[C@H]2[C@@H](O)[C@H](O[C@@H]3[C@@H](O)[C@H](N)C[C@H](N)[C@H]3O[C@H]3O[C@H](CN)[C@@H](O)[C@H](O)[C@H]3N)O[C@@H]2CO)[C@H](N)[C@@H](O)[C@@H]1O | HIV-1 | - | Tat:TAR/LTR | RNase H / fluorescence | IC50 | - | 1.26 µM
Cc1cc2c(cc1C)n1cccc1c(=O)n2CCNC(=S)Nc1ccc(Br)cn1 | HIV-1 | RT-Y188L | Reverse transcriptase | nucleotide incorporation | Ki | - | 0.5 µM
O=S1(=O)N(Cc2ccc(CO)cc2)[C@H](COc2ccccc2)[C@H](O)[C@@H](O)[C@@H](COc2ccccc2)N1Cc1ccc(CO)cc1 | HIV | PR-G48V V82A I84V L90M | Protease | - | Ki | - | 1.17 µM
O=c1c2cccn2c2ccccc2n1CCNC(=S)Nc1ccc(Cl)cn1 | HIV-1 | RT-L100I | Reverse transcriptase | nucleotide incorporation | Ki | - | 0.9 µM
Nc1nc2c(ncn2[C@H]2CC[C@@H](COP(=O)(O)OP(=O)(O)OP(=O)(O)O)O2)c(=O)[nH]1 | HIV | RT-P140A | Reverse transcriptase | nucleotide incorporation / radiometric | fold resistance | - | 26
CC(C)[C@H](NC(=O)OCc1cccnc1)C(=O)N[C@@H](Cc1ccccc1)[C@H](O)[C@H](O)[C@H](Cc1ccccc1)NC(=O)[C@@H](NC(=O)OCc1cccnc1)C(C)C | HIV-1 | - | Protease | fluorescence | IC50 | - | <0.001 µM
O=C(O)c1cc(-c2ccc(F)cc2F)ccc1O | HIV-1 | - | Integrase | AlphaScreen | inhibition | 10 µM | 42.76%

Repeating the final 6 entries:

{"compound": "Cc1cc2c(cc1C)n1cccc1c(=O)n2CCNC(=S)Nc1ccc(Br)cn1", "agent": "HIV-1", "mutations": "RT-Y188L", "protein": "Reverse transcriptase", "method": "nucleotide incorporation", "endpoint": "Ki", "value": "0.5 µM"}
{"compound": "O=S1(=O)N(Cc2ccc(CO)cc2)[C@H](COc2ccccc2)[C@H](O)[C@@H](O)[C@@H](COc2ccccc2)N1Cc1ccc(CO)cc1", "agent": "HIV", "mutations": "PR-G48V V82A I84V L90M", "protein": "Protease", "endpoint": "Ki", "value": "1.17 µM"}
{"compound": "O=c1c2cccn2c2ccccc2n1CCNC(=S)Nc1ccc(Cl)cn1", "agent": "HIV-1", "mutations": "RT-L100I", "protein": "Reverse transcriptase", "method": "nucleotide incorporation", "endpoint": "Ki", "value": "0.9 µM"}
{"compound": "Nc1nc2c(ncn2[C@H]2CC[C@@H](COP(=O)(O)OP(=O)(O)OP(=O)(O)O)O2)c(=O)[nH]1", "agent": "HIV", "mutations": "RT-P140A", "protein": "Reverse transcriptase", "method": "nucleotide incorporation / radiometric", "endpoint": "fold resistance", "value": "26"}
{"compound": "CC(C)[C@H](NC(=O)OCc1cccnc1)C(=O)N[C@@H](Cc1ccccc1)[C@H](O)[C@H](O)[C@H](Cc1ccccc1)NC(=O)[C@@H](NC(=O)OCc1cccnc1)C(C)C", "agent": "HIV-1", "protein": "Protease", "method": "fluorescence", "endpoint": "IC50", "value": "<0.001 µM"}
{"compound": "O=C(O)c1cc(-c2ccc(F)cc2F)ccc1O", "agent": "HIV-1", "protein": "Integrase", "method": "AlphaScreen", "endpoint": "inhibition", "dose": "10 µM", "value": "42.76%"}

Neighbouring rows are from separate reports. Blank or dashed fields: not listed here. Fold resistance has wild type as its base. Percent inhibition refers to the dose given; in toxicity tests it is the harm to the cells.